Experimental findings from PMC11945750, “Structural and Energetic Evidence Supports the Non-Covalent Phosphate Cyclization by the Class II Phospholipase D from Loxosceles intermedia” (2025) are described below.

Chains of the proteins cited; added tags and fusions are not shown. Residues count along the entry.
UniProt P0CE80, 27-306 limits assumed: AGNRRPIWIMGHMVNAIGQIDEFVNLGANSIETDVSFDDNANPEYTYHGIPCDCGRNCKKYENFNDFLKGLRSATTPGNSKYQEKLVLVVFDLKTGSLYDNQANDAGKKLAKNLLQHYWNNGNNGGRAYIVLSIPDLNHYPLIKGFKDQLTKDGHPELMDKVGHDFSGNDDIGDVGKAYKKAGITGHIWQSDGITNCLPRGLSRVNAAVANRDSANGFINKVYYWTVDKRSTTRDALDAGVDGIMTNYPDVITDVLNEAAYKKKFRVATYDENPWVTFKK

Each structure is given as a SMILES string.

The target in this test is Loxosceles intermedia PLD (class II phospholipase D) (Loxosceles intermedia, UniProt P0CE80). Kind of test: X-ray crystal structure (re-refinement of 3RLH data). The settings on record: active site, Mg2+ bound; crystallisation pH 7.5; ligand assigned from electron density in place of PEG4, two conformations.

Regarding `NC1(CO)COP(=O)(O)OC1` (stereo not shown), the “X-ray crystal structure (re-refinement of 3RLH data)” value was “The newly positioned ligand at the active site is a known compound”.
